Data as given in article PMC11085872, “Structure-Based Design of Novel Thiazolone[3,2-a]pyrimidine Derivatives as Potent RNase H Inhibitors for HIV Therapy” (Molecules, 2024).

Experiment: Spectrophotometric magnesium complexation
Conditions: EtOH:dioxane:water = 1:1:1, MgCl2 = 10^−3 M

Row | Compound | UV absorbance change upon addition of magnesium ions
1 | COC(=O)C1=C(C)N=C2SC(=NNc3ccccc3C(C)=O)C(=O)N2C1c1ccc(OC)cc1 (centres unmarked) [Compound 12a, Methyl 2-(2-(2-acetylphenyl)hydrazineylidene)-5-(4-methoxyphenyl)-7-methyl-3-oxo-2,3-dihydro-5H-thiazolo[3,2-a]pyrimidine-6-carboxylate] | the absorbance of the solution increased around the wavelength range of 400–450 nm
2 | COC(=O)C1=C(C)N=C2SC(=NNc3ccccc3C(=O)OC)C(=O)N2C1c1ccc(OC)cc1 (centres unmarked) [Compound 12b, Methyl 2-(2-(2-(methoxycarbonyl)phenyl)hydrazineylidene)-5-(4-methoxyphenyl)-7-methyl-3-oxo-2,3-dihydro-5H-thiazolo[3,2-a]pyrimidine-6-carboxylate] | the absorbance of the solution increased around the wavelength range of 400–450 nm
